Measured values from several laboratories, pooled; numbers as filed in NIAID ChemDB.

Common to all: tests on isolated targets; agent: HIV-1; target: Integrase

Conditions beyond the fields shown may differ between rows. Blank or dashed fields: not listed here. Two numbers with a dash give a range or band. ICn is the concentration giving n% inhibition. Fold resistance has wild type as its base.

CC1(C)CC(=O)c2c(nc(-c3coc4cc(OCc5ccc(F)cc5)ccc4c3=O)n2O)C1 ; method: 3′ processing / radiometric ; endpoint: IC20 ; result: 250 µM
O=C(O)/C(O)=C/C(=O)N(Cc1ccccc1)Cc1ccccc1 ; method: strand transfer ; endpoint: IC50 ; result: <70 µM
CCOC(=O)c1c(C)nc(-c2coc3cc(OCc4ccccc4F)ccc3c2=O)n1O ; method: 3′ processing / radiometric ; endpoint: IC20 ; result: 100 µM
Cc1cc(C(=O)N(C)C23CCC(F)(CC2)Cn2c3nc(C(=O)NCc3ccc(F)c(C)c3)c(O)c2=O)no1 ; strain or isolate: NL4-3 ; method: binding ; setting: pseudotyped ; endpoint: Ki ; result: 0.000002 µM
Cc1cc(CNC(=O)c2nc3n(c(=O)c2O)CCN(C)CC3N(C)C(=O)C(=O)N(C)C)ccc1F ; method: ELISA ; endpoint: IC50 ; result: <10 µM
CN(C)C(=O)C(=O)N(C)C12CCC(CC#N)(CC1)Cn1c2nc(C(=O)NCc2ccc(F)cc2)c(O)c1=O ; strain or isolate: NL4-3 ; method: binding ; setting: pseudotyped ; endpoint: Ki ; result: 0.0000023 µM
Cc1cc(CNC(=O)c2nc3n(c(=O)c2O)CC2(c4ncc[nH]4)CCC3(NC(=O)C(=O)N(C)C)CC2)ccc1F ; method: radiometric ; endpoint: Ki ; result: 0.0000021 µM
Cc1cc2c(cc1Cl)SC(C(=O)c1ccccc1)=NS2(=O)=O ; mutations: INTG-C65S ; method: 3′ processing ; endpoint: fold resistance ; result: 7.5
C[C@H](c1ccccc1)N(Cc1ccccc1)C(=O)/C=C(\O)C(=O)O ; method: strand transfer ; endpoint: IC50 ; result: <70 µM
CN(C)C(=O)C(=O)N1CCC2(CC1)NCCn1c2nc(C(=O)NCc2ccc(F)cc2)c(O)c1=O ; method: binding / radiometric ; endpoint: Ki ; result: 0.003–0.05 µM
CC(C)c1cn(Cc2cccc(Cl)c2)c(=O)c2c(O)c(=O)ccn12 ; method: ELISA ; endpoint: IC50 ; result: 0.01–0.1 µM
O=C(/C=C/c1ccc(O)c(O)c1)OCCc1ccccc1N=C=S ; mutations: C56S ; method: 3′ processing ; endpoint: fold resistance ; result: 7.67
CCc1cn(Cc2ccc(Cl)c(Cl)c2)c(=O)c2c(O)c(=O)ccn12 ; method: ELISA ; endpoint: IC50 ; result: 0.01–0.1 µM
Cc1cc(Cl)cc2c1S(=O)(=O)N=C(C(=O)c1ccc3ccccc3c1)S2 ; mutations: INTG-C65S ; method: 3′ processing ; endpoint: fold resistance ; result: 0.91
CN(C)CCCNC(=O)c1ccc2nc(-c3ccc4nc(-c5ccc(OCCCCCCCOc6ccc(-c7nc8ccc(-c9nc%10ccc(C(=O)NCCCN(C)C)cc%10[nH]9)cc8[nH]7)cc6)cc5)[nH]c4c3)[nH]c2c1 ; method: 3′ processing ; endpoint: Ki ; result: 0.03 µM
CN(CC1c2nc(C(=O)NCc3ccc(F)cc3)c(O)c(=O)n2CCN1C)C(=O)c1cccc[n+]1[O-] ; method: ELISA ; endpoint: IC50 ; result: <10 µM
O=C(O)/C(O)=C/C(=O)N(Cc1ccc(F)cc1)Cc1ccc(F)cc1 ; method: strand transfer ; endpoint: IC50 ; result: <70 µM
CN1Cn2c(nc(C(=O)NCc3ccc(F)cc3S(C)(=O)=O)c(O)c2=O)C1(C)C ; method: ELISA ; endpoint: IC50 ; result: <10 µM
Cc1cc(CNC(=O)c2nc3n(c(=O)c2O)CC2(C(C)O)CCC3(NC(=O)C(=O)N(C)C)CC2)ccc1F ; method: radiometric ; endpoint: Ki ; result: 0.000002 µM
Cc1ncnn1-c1cc(F)ccc1CNC(=O)c1nc2n(c(=O)c1O)CCCOC21CCN(C(=O)C(=O)N(C)C)CC1 ; method: binding / radiometric ; endpoint: Ki ; result: 0.003–0.05 µM
Cc1cc(Cl)cc2c1S(=O)(=O)N=C(C(=O)c1ccc(Cl)c(Cl)c1)S2 ; mutations: INTG-C65S ; method: strand transfer ; endpoint: fold resistance ; result: 0.12
Cc1nnc(C(=O)N2CCC3(C2)OCCn2c3nc(C(=O)NCc3ccc(F)cc3)c(O)c2=O)o1 ; method: binding / radiometric ; endpoint: Ki ; result: 0.001–0.003 µM
Cc1cn(Cc2ccc(Cl)c(Cl)c2)c(=O)c2c(O)c(=O)ccn12 ; method: ELISA ; endpoint: IC50 ; result: <0.01 µM
O=C(/C=C/c1ccc(O)c(O)c1)OCCc1cccc(N=C=S)c1 ; mutations: C65S ; method: 3′ processing ; endpoint: fold resistance ; result: 2.67
O=C1c2c(O)c(=O)c(-c3ccncc3)cn2CCN1Cc1cccc(Cl)c1F ; method: ELISA ; endpoint: IC50 ; result: <0.01 µM
O=C(NCc1ccc(F)cc1)c1nc2n(c(=O)c1O)CCCOC21CCN(C(=O)OCc2ccccc2)CC1 ; method: binding / radiometric ; endpoint: Ki ; result: 0.001–0.003 µM
O=C(c1ccccc1)c1cn2ccn(Cc3cccc(Cl)c3)c(=O)c2c(O)c1=O ; method: ELISA ; endpoint: IC50 ; result: 0.01–0.1 µM
O=C(/C=C/c1ccc(O)c(O)c1)Oc1cccc2c(N=C=S)cccc12 ; mutations: C56S ; method: 3′ processing ; endpoint: fold resistance ; result: 10
CC1(C)c2nc(C(=O)NCc3ccc(F)cc3)c(O)c(=O)n2CCN1Cc1ncco1 ; method: ELISA ; endpoint: IC50 ; result: <10 µM
O=C1c2c(O)c(=O)ccn2C(c2ccccc2)CN1Cc1ccc(Cl)c(Cl)c1 ; method: ELISA ; endpoint: IC50 ; result: 0.01–0.1 µM
Cc1cc(Cl)cc2c1S(=O)(=O)N=C(C(=O)c1ccc(Cl)cc1)S2 ; mutations: INTG-C65S ; method: strand transfer ; endpoint: fold resistance ; result: 2.6
CN(C)C(=O)C(=O)N(C)C12CCC(CO)(CC1)Cn1c2nc(C(=O)NCc2ccc(F)cc2)c(O)c1=O ; method: radiometric ; endpoint: Ki ; result: 0.0000028 µM
O=C(/C=C/c1ccc(O)c(O)c1)OCCc1ccc(N=C=S)cc1 ; mutations: C65S ; method: 3′ processing ; endpoint: fold resistance ; result: 1.75
Cc1cc(CNC(=O)c2nc3n(c(=O)c2O)CC2(F)CCC3(N(C)C(=O)C3CCOCC3)CC2)ccc1F ; method: radiometric ; endpoint: Ki ; result: 0.0000141 µM
Cc1cc2c(cc1Cl)SC(C(=O)c1cccc([N+](=O)[O-])c1)=NS2(=O)=O ; mutations: INTG-C65S ; method: strand transfer ; endpoint: fold resistance ; result: 1.6
Cc1cc(CNC(=O)C23CCC(NC(=O)C(=O)N(C)C)(CC2)c2nc(C(=O)NCc4ccc(F)c(C)c4)c(O)c(=O)n2C3)no1 ; strain or isolate: NL4-3 ; method: binding ; setting: pseudotyped ; endpoint: Ki ; result: 0.0000021 µM
CN(C)C(=O)C(=O)N(C)C12CCC(CO)(CC1)Cn1c2nc(C(=O)NCc2cccc(Cl)c2F)c(O)c1=O ; method: radiometric ; endpoint: Ki ; result: 0.000002 µM

Repeating the first 3 entries:

smiles | strain or isolate | mutations | method | setting | endpoint | result
CC1(C)CC(=O)c2c(nc(-c3coc4cc(OCc5ccc(F)cc5)ccc4c3=O)n2O)C1 |  |  | 3′ processing / radiometric |  | IC20 | 250 µM
O=C(O)/C(O)=C/C(=O)N(Cc1ccccc1)Cc1ccccc1 |  |  | strand transfer |  | IC50 | <70 µM
CCOC(=O)c1c(C)nc(-c2coc3cc(OCc4ccccc4F)ccc3c2=O)n1O |  |  | 3′ processing / radiometric |  | IC20 | 100 µM